Measured data: PubChem BioAssay AID624099 (ICCB-Longwood, 2012)
Assay: 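Knock-downs relieving repression by E2 of an HPV18 LCR luciferase reporter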 (primary screen). System: human C33A cervical carcinoma cells (HPV-negative) stably expressing BPV1 E2 and an HPV18 LCR luciferase reporter. Reagents: siRNA pool against human genes, 40 nM. Time to read-out: 72 h. Measurement: 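Per-well luciferase luminescence, z-scored on each plate against the plate mean and SD with control wells left out, then averaged across three replicate plates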. Scale: mean z-score and z-score: higher = stronger reporter signal, weaker E2 silencing. Rule for the call: 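Mean z ≥ 2 together with z ≥ 2 in two or more of the three replicates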.
In all, the deposit lists about 21,000 reagents; this is an unselected part. Of all reagents, 497 (2.4%) are marked active. 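Higher z means weaker E2 silencing; only reporter increases were scored, and knock-downs that hurt cell survival may mask genuine repressor factors.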 Entries without a mark were called inactive. The numbers tell different reagents against one gene apart. Reagent sequences are not shown.

no.	Target gene	reagent	mean z-score	z-score, replicate A	z-score, replicate B	z-score, replicate C
1	TAX1BP1	1	-0.94	-1.08	-0.79	-0.95
2	RAD21	1	-0.57	-0.64	-0.53	-0.54
3	SPMIP4	1	-0.48	-0.39	-0.58	-0.47
4	LOC285995 (retired record)	1	0.32	-0.15	0.15	0.98
5	PIF1	1	0.26	0.63	-0.06	0.2
6	AMH	1	0.2	0.21	0.23	0.15
7	POM121C	1	-0.27	-0.39	-0.37	-0.05
8	POM121C	2	-0.45	-0.43	-0.54	-0.38
9	ZNF428	1	0.04	0.27	-0.35	0.22
10	DVL2	1	2.49 (active)	2.47	2.61	2.4
11	VSTM5	1	0.27	0.32	0.31	0.17
12	BEND5	1	0.73	1.16	0.56	0.46
13	FOXD1	1	0.58	0.87	0.33	0.55
14	NOL10	1	-0.21	-0.51	0.28	-0.4
15	SLC30A9	1	0.62	0.99	0.47	0.39
16	WWC1	1	-1.23	-1.49	-1.11	-1.1
17	CBFA2T2	1	1.96	1.94	1.9	2.05
18	SIPA1	1	-0.72	-0.87	-0.37	-0.91
19	FLJ23865 (retired record)	1	1.66	1.87	1.92	1.19
20	MRPS16	1	-0.13	-0.21	0.09	-0.26
21	COMMD3	1	-1.27	-1.45	-1.28	-1.09
22	RXYLT1	1	0.62	0.19	0.74	0.95
23	FENDRR	1	0.62	0.79	0.1	0.95
24	LOC346887 (retired record)	1	0.51	0.11	0.52	0.9
25	KNSTRN	1	-0.89	-1.08	-0.9	-0.69
26	APOO	1	-1.59	-1.61	-1.59	-1.58
27	SSTR5	1	-1.22	-0.89	-1.33	-1.43
28	CAND1	1	0.41	0.24	0.39	0.6
29	METTL14	1	-1.22	-1.1	-1.49	-1.07
30	ANKRD20A19P	1	1.52	1.11	1.91	1.55
31	NTS	1	1.16	0.96	1.36	1.16
32	ATP13A3-DT	1	-0.78	-0.54	-0.85	-0.96
33	FLJ10088 (retired record)	1	-0.76	-0.79	-0.44	-1.05
34	EMC9	1	0.06	-0.45	0.64	0.01
35	LOC389268 (retired record)	1	-0.41	-0.67	-0.4	-0.16
36	PIGB	1	0.78	0.97	0.65	0.71
37	NKAP	1	-0.57	-0.6	-0.6	-0.53
38	NGF	1	-1.2	-1.58	-0.95	-1.06
39	ROBO2	1	0.19	0.36	0.09	0.13
40	DENND2C	1	0.23	0.19	0.31	0.19
41	H3C11	1	0.95	1.01	0.98	0.85
42	CDC7	1	-0.33	-0.2	-0.47	-0.34
43	CRYGN	1	1.23	0.84	1.51	1.34
44	SNHG32	1	0.06	-0.09	-0.17	0.45
45	TNS3	1	-0.1	-0.16	0.02	-0.15
46	FNDC4	1	0.04	0.35	-0.04	-0.17
47	NEK2	1	0.77	0.45	0.99	0.89
48	PAN2	1	0.02	0.11	0.18	-0.24
49	RAB40AL	1	-0.14	0.17	-0.22	-0.36
50	LNX1	1	0.42	0.46	0.18	0.61
51	TPGS1	1	-1.33	-1.26	-1.2	-1.51
52	ZNF786	1	-1.24	-1.37	-1.04	-1.32
53	NIT2	1	0.58	0.63	0.15	0.96
54	BARHL1	1	0.03	0.05	-0.1	0.14
55	PCGF2	1	1.2	1.09	1.24	1.29
56	SLC47A2	1	0.47	0.8	0.38	0.23
57	SFMBT1	1	-0.43	-0.33	-0.46	-0.5

Laid out differently: entries from further up.
DVL2: mean z-score = 2.49 (active); z-score, replicate A = 2.47; z-score, replicate B = 2.61; z-score, replicate C = 2.4
VSTM5: mean z-score = 0.27; z-score, replicate A = 0.32; z-score, replicate B = 0.31; z-score, replicate C = 0.17
BEND5: mean z-score = 0.73; z-score, replicate A = 1.16; z-score, replicate B = 0.56; z-score, replicate C = 0.46
FOXD1: mean z-score = 0.58; z-score, replicate A = 0.87; z-score, replicate B = 0.33; z-score, replicate C = 0.55
NOL10: mean z-score = -0.21; z-score, replicate A = -0.51; z-score, replicate B = 0.28; z-score, replicate C = -0.4
SLC30A9: mean z-score = 0.62; z-score, replicate A = 0.99; z-score, replicate B = 0.47; z-score, replicate C = 0.39
WWC1: mean z-score = -1.23; z-score, replicate A = -1.49; z-score, replicate B = -1.11; z-score, replicate C = -1.1
CBFA2T2: mean z-score = 1.96; z-score, replicate A = 1.94; z-score, replicate B = 1.9; z-score, replicate C = 2.05
SIPA1: mean z-score = -0.72; z-score, replicate A = -0.87; z-score, replicate B = -0.37; z-score, replicate C = -0.91
FLJ23865 (retired record): mean z-score = 1.66; z-score, replicate A = 1.87; z-score, replicate B = 1.92; z-score, replicate C = 1.19
